The test system of the test is Staphylococcus aureus. The following applies: 25.

The term MIC denotes the lowest concentration that inhibits growth of the organism. A high value points to a need for much substance. For GENTAMICIN, the MIC is 0.5 µg/mL.

The values are drawn from ChEMBL document CHEMBL1240375, “Identification of a plasmid-borne resistance gene cluster comprising the resistance genes erm(T), dfrK, and tet(L) in a porcine methicillin-resistant Staphylococcus aureus ST398 strain” (2010).
